According to PMC7616463 (Journal of medicinal chemistry, 2024):

Assay: general procedure: solution-phase peptide synthesis; T3P, NMM
Conditions: coupling step

Row | Substance | step yield [%]
1 | (S)-2-((S)-2-acetamido-2-cyclopentylacetamido)-3,3-dimethyl-N-(2-oxo-2-(((R)-1-((3aS,4S,6S, 7aR)-3a,5,5-trimethylhexahydro-4,6-methanobenzo[d][1,3,2]dioxaborol-2-yl)ethyl)amino)ethyl) butanamide | 47
2 | (S)-2-((S)-2-acetamido-2-cyclopentylacetamido)-3-cyclohexyl-N-(2-oxo-2-(((R)-1-((3aS,4S,6S, 7aR)-3a,5,5-trimethylhexahydro-4,6-methanobenzo[d][1,3,2]dioxaborol-2-yl)ethyl)amino)ethyl) propanamide | 30
3 | (S)-2-((S)-2-acetamido-2-cyclopentylacetamido)-3-cyclopentyl-N-(2-oxo-2-(((R)-1-((3aS,4S,6S,7aR)-3a,5,5-trimethylhexahydro-4,6-methanobenzo[d][1,3,2]dioxaborol-2-yl)ethyl)amino)ethyl)propanamide | 24
4 | (S)-2-((S)-2-acetamido-2-cyclopentylacetamido)-4,4-dimethyl-N-(2-oxo-2-(((R)-1-((3aS,4S,6S, 7aR)-3a,5,5-trimethylhexahydro-4,6-methanobenzo[d][1,3,2]dioxaborol-2-yl)ethyl)amino) ethyl)pentanamide | 52
5 | (S)-2-((S)-2-acetamido-2-cyclopentylacetamido)-4-methyl-N-(2-oxo-2-(((R)-1-((3aS,4S,6S, 7aR)-3a,5,5-trimethylhexahydro-4,6-methanobenzo[d][1,3,2]dioxaborol-2-yl)ethyl)amino) ethyl)pentanamide | 41
6 | (S)-2-((S)-2-acetamido-2-cyclopentylacetamido)-N-(2-oxo-2-(((R)-1-((3aS,4S,6S, 7aR)-3a,5,5-trimethylhexahydro-4,6-methanobenzo[d][1,3,2]dioxaborol-2-yl)ethyl) amino)ethyl)-3-phenylpropanamide | 38
7 | (S)-2-acetamido-2-cyclopentyl-N-((S)-2-oxo-2-((2-oxo-2-(((R)-1-((3aS,4S,6S,7aR)-3a,5,5-trimethylhexahydro-4,6-methanobenzo[d][1,3,2]dioxaborol-2-yl)ethyl)amino)ethyl)amino)-1-phenylethyl)acetamide | 35

Same assay, conditions: late stage modification step

Row | Substance | step yield [%]
8 | (2S,3S)-2-((S)-2-cyclopentyl-2-((pyridin-2-ylmethyl)amino)acetamido)-3-methyl-N-(2-oxo-2-(((R)-1-((3aS,4S,6S,7aR)-3a,5,5-trimethylhexahydro-4,6-methano benzo[d]-[1,3,2]dioxaborol-2-yl)ethyl)amino)ethyl)pentanamide | 59
9 | (2S,3S)-2-((S)-2-cyclopentyl-2-(thiazole-2-sulfonamido)acetamido)-3-methyl-N-(2-oxo-2-(((R)-1-((3aS,4S,6S,7aR)-3a,5,5-trimethylhexahydro-4,6-methanobenzo[d]-[1,3,2]dioxaborol-2-yl)ethyl)amino)ethyl)pentanamide | 81
10 | (2S,3S)-2-((S)-2-cyclopentyl-2-pivalamidoacetamido)-3-methyl-N-(2-oxo-2-(((R)-1-((3aS,4S,6S,7aR)-3a,5,5-trimethylhexahydro-4,6-methanobenzo[d][1,3,2]dioxaborol-2-yl)ethyl)amino)ethyl)pentanamide | 67
11 | ((2R,8S,11S)-8-((S)-sec-butyl)-11-cyclopentyl-4,7,10,13-tetraoxo-3,6,9,12-tetraaza-tetradecan-2-yl)boronic acid | 81
12 | ((2R,8S,11S)-8-((S)-sec-butyl)-11-cyclopentyl-14,14-dimethyl-4,7,10,13-tetraoxo-3,6,9,12-tetraazapentadecan-2-yl)boronic acid | 53
13 | ((2R,8S,11S)-8-((S)-sec-butyl)-11-cyclopentyl-14-methyl-4,7,10,13-tetraoxo-3,6,9,12-tetraazapentadecan-2-yl)boronic acid | 66
14 | ((2R,8S,11S)-8-(cyclohexylmethyl)-11-cyclopentyl-4,7,10,13-tetraoxo-3,6,9,12-tetra-azatetradecan-2-yl)boronic acid | 54
15 | ((2R,8S,11S)-8-(tert-butyl)-11-cyclopentyl-4,7,10,13-tetraoxo-3,6,9,12-tetraazatetra decan-2-yl)boronic acid | 74
16 | ((2R,8S,11S)-8-benzyl-11-cyclopentyl-4,7,10,13-tetraoxo-3,6,9,12-tetraazatetradecan-2-yl)boronic acid | 75
17 | ((2R,8S,11S)-11-cyclopentyl-4,7,10,13-tetraoxo-8-phenyl-3,6,9,12-tetraazatetradecan -2-yl)boronic acid | 75
18 | ((2R,8S,11S)-11-cyclopentyl-8-(cyclopentylmethyl)-4,7,10,13-tetraoxo-3,6,9,12-tetra-azatetradecan-2-yl)boronic acid | 59
19 | ((2R,8S,11S)-11-cyclopentyl-8-isobutyl-4,7,10,13-tetraoxo-3,6,9,12-tetraazatetra-decan-2-yl)boronic acid | 79
20 | ((2R,8S,11S)-11-cyclopentyl-8-neopentyl-4,7,10,13-tetraoxo-3,6,9,12-tetraazatetra-decan-2-yl)boronic acid | 82
21 | ((3S,6S,12R)-6-((S)-sec-butyl)-1-cyclobutyl-3-cyclopentyl-1,4,7,10-tetraoxo-2,5,8,11-tetraazatridecan-12-yl)boronic acid | 80
22 | ((3S,6S,12R)-6-((S)-sec-butyl)-3-cyclopentyl-1,4,7,10-tetraoxo-1-(6-phenylpyridin-2-yl)-2,5,8,11-tetraazatridecan-12-yl)boronic acid | 70
23 | ((3S,6S,12R)-6-((S)-sec-butyl)-3-cyclopentyl-1,4,7,10-tetraoxo-1-(quinolin-2-yl)-2,5,8,11-tetraazatridecan-12-yl)boronic acid | 74
24 | ((3S,6S,12R)-6-((S)-sec-butyl)-3-cyclopentyl-4,7,10-trioxo-1-(pyridin-2-yl)-2,5,8,11-tetraazatridecan-12-yl)boronic acid (3j) | 62
25 | ((3S,6S,12R)-6-((S)-sec-butyl)-3-cyclopentyl-4,7,10-trioxo-1-phenyl-2,5,8,11-tetra-azatridecan-12-yl)boronic acid | 65
26 | ((R)-1-(2-((2S,3S)-2-((S)-2-cyclopentyl-2-(thiazole-2-sulfonamido)acetamido)-3-methylpentanamido)acetamido)ethyl)boronic acid | 75
27 | N-((S)-1-cyclopentyl-2-(((2S,3S)-1-((2-(((R)-2-hydroxy-6-oxo-1,2-oxaborinan-3-yl)amino)-2-oxoethyl)amino)-3-methyl-1-oxopentan-2-yl)amino)-2-oxoethyl) quinoline-2-carboxamide (4a) | 82
28 | N-((S)-1-cyclopentyl-2-(((2S,3S)-1-((2-(((R)-2-hydroxy-6-oxo-1,2-oxaborinan-3-yl)amino)-2-oxoethyl)amino)-3-methyl-1-oxopentan-2-yl)amino)-2-oxoethyl)-3,5-dimethylbenzamide (4c) | 75

Same assay, conditions: late stage modification step; run 1

Row | Substance | step yield [%]
29 | ((3S,6S,12R)-6-((S)-sec-butyl)-3-cyclopentyl-1-(3,5-dimethylphenyl)-1,4,7,10-tetra-oxo-2,5,8,11-tetraazatridecan-12-yl)boronic acid | 71

Same assay, conditions: late stage modification step; run 2

Row | Substance | step yield [%]
30 | ((3S,6S,12R)-6-((S)-sec-butyl)-3-cyclopentyl-1-(3,5-dimethylphenyl)-1,4,7,10-tetra-oxo-2,5,8,11-tetraazatridecan-12-yl)boronic acid | 67
